Tested on: CC(=O)Oc1ccc([N+](=O)[O-])cc1
Test: purified protein
Settings: 50 mM Tris-HCl pH 8.0, 1% Triton X-100, 37 °C, substrate range printed 1.5 to 25 uM

## CesH (Bacillus paranthracis)
  Km: 0.0396 mM

— article PMC6521208
